Compound potency records, mixed from different reports. Data source: NIAID ChemDB in PubChem.

Common to all: whole-cell or culture tests; organism: Herpes simplex virus 1; read by: cytopathic effect; read-out: EC50

An empty or dashed field is not shown. ECn: concentration that inhibits the pathogen or its effect by n%. Conditions beyond the fields shown may differ between rows.

| compound | strain or isolate | cells | value |
|---|---|---|---|
| Nc1ncnc2c1ccn2[C@@H]1O[C@H](CO)C[C@H]1O | KOS | PRK | ≥10 µg/mL |
| Nc1ncnc2c1ncn2C[C@@H](CO)OCP(=O)(O)O | PCV-resistant/B | HEL | 0.07 µg/mL |
| O=C(CCCl)NN1CC[N+]2(CC1)CC[N+]1(CCN(NC(=O)CCCl)CC1)CC2 | - | GMK | 66.1 µg/mL |
| Nc1nccc2c1ncn2[C@@H]1O[C@H](CO)[C@@H](O)[C@H]1O | KOS | PRK | 200 µg/mL |
| Nc1nc(N)c2ncn(C[C@H]3CC[C@@H](CO)C3)c2n1 | B2006 (TK-) | E6SM | >400 µg/mL |
| NCCOP(=O)(O)OC[C@H](O)CO | KOS | HeLa | >200 µg/mL |
| Nc1ncnc2c1ccn2[C@H]1C[C@H](O)[C@@H](CO)O1 | KOS | PRK | 50 µg/mL |
| Nc1nc2c(ncn2COCCOP(=O)(O)C(=O)O)c(=O)[nH]1 | AVD | VERO | 143 µM |
| CCOC(=O)P(=O)(O)OC[C@H]1O[C@@H](n2cc(CCCl)c(=O)[nH]c2=O)C[C@@H]1O | TK- | VERO | >70.3 µM |
| Nc1nc2c(ncn2COC(CO)CO)c(=O)[nH]1 | KOS S2242-resistant | HEL | 0.0009 µg/mL |
| CCCc1cn([C@H]2C[C@H](O)[C@@H](CO)S2)c(=O)[nH]c1=O | KOS McIntyre F | E6SM | 0.06 µM |
| COc1ccc(Cn2c(O)c(N=O)c(=O)[nH]c2=O)cc1 | Leningrad/248/88 | VERO | >100 µg/mL |
| C1N2CN3CN1CN(C2)C3 | KOS | HeLa | >200 µg/mL |
| Nc1nccc2c1ncn2[C@@H]1O[C@H](CO)[C@@H](O)[C@H]1O | - | PRK | ≥40 µg/mL |
| O=C(O)CP(=O)(O)O | KOS BVDU-resistant | HEL | 14.75 µg/mL |
| Nc1nccc2c1ncn2[C@@H]1C[C@H](CO)[C@@H](O)[C@H]1O | - | PRK | ≥200 µg/mL |
| Nc1nc2c(ncn2COCCO)c(=O)[nH]1 | BRAND | VERO | >0.01 µM |
| Nc1ncnc2c1ncn2[C@@H]1O[C@H](CO)[C@@H](O)[C@@H]1O | KOS PFA-resistant | HEL | 11.3 µg/mL |
| Nc1nc(Cl)c2ncn(C[C@H]3CC[C@@H](CO)C3)c2n1 | B2006 (TK-) | E6SM | >1 µg/mL |
| O=C(OCc1ccccc1)P(=O)(O)OC[C@H]1O[C@@H](n2cc(CCCl)c(=O)[nH]c2=O)C[C@@H]1O | BRAND | VERO | >20.5 µM |
| Cc1nc(N2CC[N+]3(CC2)CC[N+]2(CCN(c4nc(C)nc5c4no[n+]5[O-])CC2)CC3)c2c(no[n+]2[O-])n1 | - | GMK | 51.77 µg/mL |
| Nc1nc2c(nnn2C[C@H]2CC[C@@H](CO)C2)c(=O)[nH]1 | B2006 (TK-) | E6SM | >200 µg/mL |
| O=C(O)P(=O)(O)O | ACV-resistant | HEL | 30 µg/mL |
| CCc1cn([C@H]2C[C@H](O)[C@@H](CO)O2)c(=O)[nH]c1=O | KOS McIntyre F | E6SM | 12 µM |
| CCc1cn([C@H]2C[C@H](O)[C@@H](COP(=O)(O)C(N)=O)S2)c(=O)[nH]c1=O | L2/R acyclovir-resistant | VERO | 52.8 µM |
| O=c1[nH]c(=O)n([C@H]2C[C@H](O)[C@@H](CO)O2)cc1/C=C/Br | KOS McIntyre F | E6SM | 0.18 µM |
| Nc1ccn(C[C@@H](CO)OCP(=O)(O)O)c(=O)n1 | PCV-resistant/B | HEL | 0.36 µg/mL |
| O=Nc1c(O)n(Cc2ccccc2)c(=O)[nH]c1=O | Leningrad/248/88 | VERO | >100 µg/mL |
| Nc1ncnc2c1ncn2C[C@H](O)CO | F | PRK | >100 µg/mL |
| O=c1[nH]c(=O)n([C@H]2C[C@H](O)[C@@H](CO)O2)cc1/C=C/Br | KOS | HEL | 0.007 µg/mL |
| O=c1[nH]c(=O)n([C@H]2C[C@H](O)[C@@H](CO)O2)cc1I | BRAND | VERO | >0.3 µM |
| Nc1ncnc2c1ncn2[C@@H]1O[C@H](CO)C[C@@H]1O | KOS | HEL | 11.9 µg/mL |
| O=C(O)CP(=O)(O)O | PCV-resistant/B | HEL | 11 µg/mL |
| O=Nc1c(O)n(-c2ccc(F)cc2)c(=O)[nH]c1=O | Leningrad/248/88 | VERO | <100 µg/mL |
| O=c1ccn([C@H]2C[C@H](O)[C@@H](CO)S2)c(=O)[nH]1 | KOS McIntyre F | E6SM | 16 µM |
| O=[N+]([O-])c1c(Cl)ncnc1NN1CC[N+]2(CC1)CC[N+]1(CCN(Nc3ncnc(Cl)c3[N+](=O)[O-])CC1)CC2 | - | GMK | 7.71 µg/mL |
| Nc1ncnc2c1ncn2CCOCP(=O)(O)O | KOS | HEL | 11.6 µg/mL |
| O=c1[nH]c(=O)n([C@H]2C[C@H](O)[C@@H](CO)O2)cc1C1CCCC1 | KOS McIntyre F | E6SM | 115 µM |
| C[C@@H]1O[C@@H](O[C@H]2C[C@@H](O)[C@]3(CO)[C@H]4[C@H](O)C[C@]5(C)[C@@H](C6=CC(=O)OC6)CC[C@]5(O)[C@@H]4CC[C@]3(O)C2)[C@H](O)[C@H](O)[C@H]1O | KOS | HeLa | >200 µg/mL |
| NC(=O)c1csc([C@@H]2O[C@H](CO)[C@@H](O)[C@H]2O)n1 | KOS | VERO | 100 µg/mL |
| N#Cc1cn([C@@H]2O[C@H](CO)[C@@H](O)[C@@H]2O)c2ncnc(N)c12 | KOS | PRK | 7 µg/mL |
| O=C(O)CP(=O)(O)O | TK- | VERO | >71.4 µM |
| Nc1ncnc2c1ncn2C[C@@H](CO)OCP(=O)(O)O | KOS PMEDAP-resistant | HEL | 0.06 µg/mL |
| O=C(CP(=O)(O)O)OC[C@H]1O[C@@H](n2cc(CCCl)c(=O)[nH]c2=O)C[C@@H]1O | TK- | VERO | >72.7 µM |
| O=C(O)P(=O)(O)O | KOS | U87MG | 25.8 µg/mL |
| CCOC(=O)P(=O)(OC)OC[C@H]1O[C@@H](n2cc(I)c(=O)[nH]c2=O)C[C@@H]1O | BRAND | VERO | >0.6 µM |
| O=c1[nH]c(=O)n([C@H]2C[C@H](O)[C@@H](CO)S2)cc1C1CCCC1 | KOS McIntyre F | E6SM | 13 µM |
| CCOC(=O)CP(=O)(OC)OC[C@H]1O[C@@H](n2cc(CCCl)c(=O)[nH]c2=O)C[C@@H]1O | BRAND | VERO | >6.6 µM |
| O=c1ccn([C@H]2C[C@H](O)[C@@H](CO)O2)c(=O)[nH]1 | KOS McIntyre F | E6SM | >2000 µM |
| Nc1ncnc2c1ccn2[C@@H]1C[C@H](CO)[C@@H](O)[C@H]1O | - | PRK | ≥10 µg/mL |
| C[C@]12C[C@H](O)[C@H]3[C@@H](CCC4=CC(=O)CC[C@@]43C)[C@@H]1CC[C@@H]2C(=O)CO | KOS | HeLa | >10 µg/mL |
| Nc1ncnc2c1ccn2[C@@H]1O[C@H](CO)[C@H](O)[C@H]1O | VMW1837 (TK-) | PRK | 0.07 µg/mL |
| OC(CCl)CN1CC[N+]2(CC1)CC[N+]1(CCN(CC(O)CCl)CC1)CC2 | - | GMK | 62.47 µg/mL |
| O=c1[nH]c(=O)n([C@H]2C[C@H](O)[C@@H](CO)O2)cc1/C=C/Br | B2006 (TK-) | E6SM | 70 µg/mL |
| Cc1ccccc1-n1c(O)c(N=O)c(=O)[nH]c1=O | Leningrad/248/88 | VERO | >100 µg/mL |
| O=c1[nH]c(=O)n([C@H]2C[C@H](O)[C@@H](CO)O2)cc1/C=C/Br | KOS | PRK | 0.04 µg/mL |
| CCCCC/C=C\C/C=C\C/C=C\C/C=C\CCCC(=O)O[C@H]1CC[C@@]2(C)C(=CC[C@H]3[C@@H]4CC[C@H]([C@H](C)CCCC(C)C)[C@@]4(C)CC[C@@H]32)C1 | KOS | HeLa | >200 µg/mL |
| Nc1nc(N)c2nnn(C[C@H]3CC[C@@H](CO)C3)c2n1 | KOS | E6SM | >400 µg/mL |

For reference, 8 entries again:

{"compound": "O=C(CCCl)NN1CC[N+]2(CC1)CC[N+]1(CCN(NC(=O)CCCl)CC1)CC2", "cells": "GMK", "value": "66.1 µg/mL"}
{"compound": "Nc1nccc2c1ncn2[C@@H]1C[C@H](CO)[C@@H](O)[C@H]1O", "cells": "PRK", "value": "≥200 µg/mL"}
{"compound": "CCCCC/C=C\\C/C=C\\C/C=C\\C/C=C\\CCCC(=O)O[C@H]1CC[C@@]2(C)C(=CC[C@H]3[C@@H]4CC[C@H]([C@H](C)CCCC(C)C)[C@@]4(C)CC[C@@H]32)C1", "strain or isolate": "KOS", "cells": "HeLa", "value": ">200 µg/mL"}
{"compound": "Nc1ncnc2c1ncn2[C@@H]1O[C@H](CO)C[C@@H]1O", "strain or isolate": "KOS", "cells": "HEL", "value": "11.9 µg/mL"}
{"compound": "O=c1[nH]c(=O)n([C@H]2C[C@H](O)[C@@H](CO)O2)cc1I", "strain or isolate": "BRAND", "cells": "VERO", "value": ">0.3 µM"}
{"compound": "O=C(O)CP(=O)(O)O", "strain or isolate": "PCV-resistant/B", "cells": "HEL", "value": "11 µg/mL"}
{"compound": "Nc1nc2c(ncn2COC(CO)CO)c(=O)[nH]1", "strain or isolate": "KOS S2242-resistant", "cells": "HEL", "value": "0.0009 µg/mL"}
{"compound": "NC(=O)c1csc([C@@H]2O[C@H](CO)[C@@H](O)[C@H]2O)n1", "strain or isolate": "KOS", "cells": "VERO", "value": "100 µg/mL"}